Molecular target: subset of 13 pseudoviruses
Assay: cell-based or functional assay

B1: BiS13 (bispecific antibody)
heavy: QMQLQESGPGLVKPGETLSLTCSVSGASISSSYWSWLRETPGKGLEWIGYTHHSGDTNYAPSLKSRVHLGLHPSKNQVSLSLTSVTAADTAVYYCARTLHGRRIYGVVAFNEYYTYFYWPTWGKGTQVTVSSASTKGPSVFPLAPSSKSTSGGTAALGCLVKDYFPEPVTVSWNSGALTSGVHTFPAVLQSSGLYSLSSVVTVPSSSLGTQTYICNVNHKPSNTKVDKKV[human IgG1 Fc with changes omitted]
light: ALTQPRSVSASPGQSVTISCTGTHNLVSWCQHQPGRAPKLLIYDFNKRPSGVPDRFSGSGSGGTASLTITGLQDDDDAEYFCWAYEAFGGGTKLTVLGQGGGGSGGGGSGGGGSADLVQSGAVVKKPGDSVRISCEAQGYRFPDYIIHWIRRAPGQGPEWMGWMNPMGGQVNIPWKFQGRVSMTRDTSIETAFLDLRGLKSDDTAVYYCVRDRSNGSGKRFESSNWFLDLWGRGTAVTIQSGGGGSGGGGSGGGGSGGGGSGGGGSDISVAPGETVRITCGGESIGSRAVQWYQHRPGQAPRLIIYNNQDRPPGIPERFSGSPDIDFGTTATLTISNVEAGDEATYYCHIWDSRRPTNWELGPGTTLTVLGQPKAAPSVTLFPPSSEELQANKATLVCLISDFYPGAVTVAWKADSSPVKAGVETTTPSKQSNNKYAASSYLSLTPEQWKSHKSYSCQVTHEGSTVEKTVAPTECS
- fold improvement of median IC80 against the parental antibodies used in combination: > 13 fold
